Measured values from paper PMC5581740.

Columns and labels:
[1] = tested on: Cc1cn([C@H]2C[C@H](O)[C@@H](COP(=O)(O)OP(=O)(O)O[C@H]3O[C@H](C)[C@@H](O)[C@H](N)[C@H]3O)O2)c(=O)[nH]c1=O; assay: purified protein; details: 5 mM N10-formyl-THF, 50 mM HEPPS pH 8.0, 0.20 uM enzyme
[2] = tested on: Cc1cn([C@H]2C[C@H](O)[C@@H](COP(=O)(O)OP(=O)(O)O[C@H]3O[C@H](C)[C@H](O)[C@H](N)[C@H]3O)O2)c(=O)[nH]c1=O; assay: purified protein; details: 5 mM N10-formyl-THF, 50 mM HEPPS pH 8.0, 0.20 uM enzyme

Work on FdtF (Salmonella enterica; E395A) yielded a Km [1] of 180 ± 20 µM, a kcat [1] of 2.8 s⁻¹ and a kcat/Km [1] of 16000 M⁻¹ s⁻¹. For the same substance, the Km [2] was 110 ± 10 µM, the kcat [2] was 15.8 s⁻¹ and the kcat/Km [2] was 140000 M⁻¹ s⁻¹.
